According to US12583820B2, “Broad spectrum antivirals against coronavirus” (priority 2020, dated 2026):

Test system: NV in the replicon harboring cells (HG23 cells)
Assay: Cell-based norovirus replicon system
Parameters: species or system norovirus (NV)
Conditions: read-out: EC50 (μM) ± SD, Table 12

Structure (SMILES): CC(C)(COC(=O)N[C@@H](CC1CCCCC1)C(=O)N[C@H](C=O)C[C@@H]1CCNC1=O)Cc1cccc(Cl)c1
- EC50: 0.06 µM
